Anti-infective test results gathered from many reports (values: NIAID ChemDB through PubChem).

Common to all: tests in culture; species: Mycobacterium tuberculosis

Percent inhibition refers to the dose given; in toxicity tests it is the harm to the cells. Rows are shuffled and stem from different studies. MIC bound comes from a single tested concentration. An empty or dashed field is not shown. ECn is the concentration giving n% inhibition of infection, replication or growth. MIC50, MIC90 and the like: level of inhibition, or share of isolates inhibited.

compound	strain	changes	cell line	read by	setting	measure	tested at	result
CCn1c2ccc([N+](=O)[O-])cc2c2c([N+](=O)[O-])c(-n3cccc3)ccc21	H37Rv			BACTEC		MIC bound		>12.5 µg/mL
Clc1cccc2c1NC(c1ccccn1)S2	H37Rv					MIC		3.1 µg/mL
CC(=O)/C(N=Nc1ccc(C(=O)N/N=C/c2ccc([N+](=O)[O-])o2)cc1)=C(\C)O	H37Rv					inhibition	12.5 µg/mL	95%
CCCCCCCCCCCCCCN(CCO)C[C@@H]1O[C@@H]2OC(C)(C)O[C@@H]2[C@H]2OC(C)(C)O[C@H]21	H37Rv					MIC		6.25 µg/mL
CCOC(=O)c1[nH]c2ccccc2c1CN(C)C	H37Rv			BACTEC		inhibition	6.25 µg/mL	96%
O=C(NN1C(=O)CS(=O)(=O)C1c1ccc(Cl)cc1Cl)c1ccncc1	16PI					MIC		>5 µg/mL
CC(=O)C1=C(O)c2c(C)cc(C)nc2S(=O)(=O)N1CC(=O)c1ccccc1	H37Rv					EC50		>12.5 µg/mL
Cc1ccc2c(c1)[n+](=O)c(Cl)c(C)n2[O-]	H37Rv					inhibition	6.25 µg/mL	100%
CC(=O)Nc1cc2c(s1)CCC1CC(=O)NN=C21	H37Rv			resazurin		MIC bound		>6.25 µg/mL
CCN1c2ccccc2SC1c1ccncc1	H37Rv					MIC		25 µg/mL
O=C(c1ccc2ccccc2c1)c1cn(-c2ccc(Cl)cc2)nn1	H37Rv					inhibition	12.5 µg/mL	0%
CCCCCCCCCCCCCCCCNCCO	H37Rv					MIC		12.5 µg/mL
N#Cc1ccc(-c2ccc(OCC(N)=O)cc2CN2CCN(c3ccccn3)CC2)cc1	H37Rv (ATCC 27294)			broth dilution		MIC		64 µg/mL
Nc1ccc(C(=O)N/N=C/c2ccc([N+](=O)[O-])o2)cc1	H37Rv					inhibition	12.5 µg/mL	70%
COC(=O)COc1ccc(-c2ccc(C#N)cc2)c(CN2CCN(c3ccccn3)CC2)c1	H37Rv (ATCC 27294)			broth dilution		MIC		4 µg/mL
NC(=O)OCc1c(-c2ccccc2)nn(-c2ccccc2)c1COC(N)=O	H37Rv					inhibition	6.25 µg/mL	-7%
COc1cccc2c1NC(c1cccnc1)S2	H37Rv					MIC		0.16 µg/mL
CO[C@H]1/C=C/O[C@@]2(C)Oc3c(C)c(O)c4c(O)c(c5c(c4c3C2=O)NC2(CCN(CC(C)C)CC2)N=5)=NC(=O)/C(C)=C\C=C\[C@H](C)[C@H](O)[C@@H](C)[C@@H](O)[C@@H](C)[C@H](OC(C)=O)[C@@H]1C	Strain 11 (RIF-resistant)					MIC		1.25 µg/mL
N#Cc1ccc(-c2ccc(OCC(=O)O)cc2CN2CCN(c3ccccn3)CC2)cn1	H37Rv (ATCC 27294)			broth dilution		MIC		32 µg/mL
Cc1cc(Oc2ccccc2)c2c(ccc3nc(C)cc(Oc4ccccc4)c32)n1	H37Rv			BACTEC		MIC bound		>12.5 µg/mL
C[C@@H]1CN(c2c(F)c(N)c3c(=O)c(C(=O)O)cn(C4CC4)c3c2F)C[C@H](C)N1	Strain 24					MIC		0.125 µg/mL
Cc1ccc2c(c1)[n+](=O)c(Sc1ccccc1)c(CBr)n2[O-]	H37Rv					inhibition	6.25 µg/mL	17%
CCCn1c(=O)c2ccccc2[n+]2c(-c3ccc([N+](=O)[O-])cc3)csc12.[Br-]	H37Rv			BACTEC		MIC bound		>12.5 µg/mL
CC1COc2c(N3CCN(C)CC3)c(F)cc3c(=O)c(C(=O)O)cn1c23	17003	Ethambutol-resistant		broth dilution		MIC80		0.3 µM
CC(=O)NC1C(O)OC(CO)C(OC2OC(CO)C(O)C(O)C2NC(=O)NCCCCCCNC(=O)n2cc(F)c(=O)[nH]c2=O)C1O	H37Rv			BACTEC		inhibition	12.5 µg/mL	84%
O=C(c1cn(-c2ccccc2)nn1)c1ccc(Cl)cc1Cl	H37Rv					MIC		>12.5 µg/mL
COc1cc2c(c(OC)c1OC)-c1ccc(OC)c(=O)cc1C(NC=O)CC2	H37Rv			BACTEC		MIC bound		>12.5 µg/mL
Cc1cc(C)c2c(=O)n(CC(O)CN3CCCCC3)sc2n1	H37Rv					MIC		>12.5 µg/mL
N#Cc1ccc(-c2ccc(OCc3nn[nH]n3)cc2CN2CCN(c3ccccn3)CC2)cc1	H37Rv (ATCC 27294)			broth dilution		MIC		64 µg/mL
CCOc1ccc2c(c1)n([O-])c1cc(Cl)ccc1[n+]2=O	H37Rv			BACTEC		MIC		1.6 µg/mL
CC[C@H]1OC(=O)[C@H](C)[C@@H](O[C@H]2C[C@@](C)(OC)[C@@H](O)[C@H](C)O2)[C@H](C)[C@@H](O[C@@H]2O[C@H](C)C[C@H](N(C)C)[C@H]2O)[C@](C)(OC)C[C@@H](C)C(=O)[C@H](C)[C@@H](O)[C@]1(C)O	29197					MIC		>4 µg/mL
CC(=O)c1cn(O)nn1	H37Rv					MIC		>12.5 µg/mL
CN=S(=O)(c1ccccc1)c1ccccc1	H37Rv			BACTEC		MIC bound		>12.5 µg/mL
O=C(c1ccc(Br)cc1)c1cn(-c2ccc(Cl)cc2)nn1	H37Rv					MIC		>12.5 µg/mL
Cc1ccc2c(c1)n([O-])c(C)c(Cl)[n+]2=O	H37Rv					MIC		3.13 µg/mL
NNC(=O)c1ccncc1						MBC		>3.2 µg/mL
CC(=O)/C(N=Nc1ccc(C(=O)N/N=C/c2ccccc2F)cc1)=C(\C)O	H37Rv					MIC		>12.5 µg/mL
Clc1ccc2c(c1)NC(c1ccncc1)S2	H37Rv					MIC		12.5 µg/mL
COc1ccc2cc(CN(C(=O)Nc3ccc(Cl)cc3)C3CCCCC3)c(=O)[nH]c2c1	H37Rv (ATCC 27294)			broth dilution		MIC		>64 µg/mL
c1ccc(C2Nc3ccccc3S2)nc1	H37Rv					MIC		2.2 µg/mL
CN1C(=O)N(C)C2CC(=O)c3ccc(C(F)(F)F)cc3N2C1=O	H37Rv			BACTEC		MIC		≥12.5 µg/mL
COc1ccc2cc(CN(C(=O)Nc3ccc(F)cc3)C3CCCCC3)c(=O)[nH]c2c1	H37Rv (ATCC 27294)			broth dilution	14 d	MIC		>64 µg/mL
CC(=O)C1=C(O)c2c(C)cc(C)nc2S(=O)(=O)N1C	H37Rv					MIC		>12.5 µg/mL
NC1=NS(=O)(=O)N=C(N)C1=Cc1ccc([N+](=O)[O-])o1	H37Rv			BACTEC		MIC bound		≤12.5 µg/mL
Cc1ccc2c(c1)NC(c1cccnc1)S2	H37Rv					MIC		3.1 µg/mL
O=C(NNC(=O)c1ccncc1)c1ccncc1	H37Rv			BACTEC		MIC bound		≤12.5 µg/mL
CO[C@H]1/C=C/O[C@@]2(C)Oc3c(C)c(O)c4c(O)c(c5c(c4c3C2=O)NC2(CCN(CC(C)C)CC2)N=5)=NC(=O)/C(C)=C\C=C\[C@H](C)[C@H](O)[C@@H](C)[C@@H](O)[C@@H](C)[C@H](OC(C)=O)[C@@H]1C	CSU23					MIC		≤0.125 µg/mL
c1cncc(C2Nc3ccccc3S2)c1	H37Rv					MIC		4.4 µg/mL
NNC(=O)c1ccncc1	9133					MIC		≥0.2 µg/mL
CO[C@H]1/C=C/O[C@@]2(C)Oc3c(C)c(O)c4c(O)c(c5c(c4c3C2=O)NC2(CCN(CC(C)C)CC2)N=5)=NC(=O)/C(C)=C\C=C\[C@H](C)[C@H](O)[C@@H](C)[C@@H](O)[C@@H](C)[C@H](OC(C)=O)[C@@H]1C	Strain 78 (D516V)					MIC		0.125 µg/mL
Cc1c(Sc2ccccc2)[n+](=O)c2cc(C(F)(F)F)ccc2n1[O-]	H37Rv					inhibition	6.25 µg/mL	100%
O=C(c1cn(-c2ccc(Cl)cc2)nn1)c1ccco1	H37Rv					inhibition	12.5 µg/mL	17%
CCOc1ccc2nc3cc(N=Nc4ccc(N)nc4N)ccc3c(N)c2c1	H37Rv			BACTEC		MIC bound		>12.5 µg/mL
CN[C@@H]1[C@H](O[C@H]2[C@H](O[C@H]3[C@H](O)[C@@H](O)[C@H](N=C(N)N)[C@@H](O)[C@@H]3N=C(N)N)O[C@@H](C)[C@]2(O)C=O)O[C@@H](CO)[C@H](O)[C@H]1O						MBC		8 µg/mL
CCOc1cc2c(cc1F)n([O-])c(C)c(Sc1ccccc1)[n+]2=O	H37Rv					inhibition	6.25 µg/mL	19%
O=C(N/N=C/c1ccc(Cl)cc1Cl)c1ccncc1	H37Rv					MIC		>5 µg/mL
O=C1NC(C2CCC3CN32)C(=O)NC1C1CCC2CN21	H37Rv			BACTEC		MIC		≥12.5 µg/mL
CCOc1cc2c(cc1F)n([O-])c(C)c(S(=O)(=O)c1ccccc1)[n+]2=O	H37Rv					inhibition	6.25 µg/mL	100%
COc1nc2ccc(Br)cc2cc1[C@@H](c1ccccc1)[C@@](O)(CCN(C)C)c1cccc2ccccc12	35820	Streptomycin-resistant		broth dilution		MIC80		<2 µM
C[C@@H]1CN[C@@H](C)CN1C(=S)S	H37Rv			BACTEC		MIC bound		>12.5 µg/mL
CC(C)C(=O)c1cn(-c2ccccc2)nn1	H37Rv					MIC		>12.5 µg/mL
CCN(CC)CCOc1ccc(C2Nc3ccccc3S2)cc1	H37Rv					MIC		12.5 µg/mL
CC1CC2C(=S)NC(=O)C(c3ccccc3)=C2O1	H37Rv			BACTEC		MIC bound		>12.5 µg/mL
CO[C@H]1/C=C/O[C@@]2(C)Oc3c(C)c(O)c4c(O)c(c(/C=N/N5CCN(C)CC5)c(O)c4c3C2=O)NC(=O)/C(C)=C\C=C\[C@H](C)[C@H](O)[C@@H](C)[C@@H](O)[C@@H](C)[C@H](OC(C)=O)[C@@H]1C	17003	Ethambutol-resistant		broth dilution		MIC80		0.04 µM
CO[C@H]1/C=C/O[C@@]2(C)Oc3c(C)c(O)c4c(O)c(c(/C=N/N5CCN(C)CC5)c(O)c4c3C2=O)NC(=O)/C(C)=C\C=C\[C@H](C)[C@H](O)[C@@H](C)[C@@H](O)[C@@H](C)[C@H](OC(C)=O)[C@@H]1C	PR118					MIC		0.31 µg/mL
CC(=O)NC[C@H]1CN(c2ccc(N3CCN(Cc4ccc([N+](=O)[O-])o4)CC3)c(F)c2)C(=O)O1	59 isolates					MIC90		8 µg/mL
O=C(NN1C(=O)CS(=O)(=O)C1c1ccccc1F)c1ccncc1	16PI					MIC		>5 µg/mL
O=c1[nH]cnc2c([C@@H]3O[C@H](CO)[C@@H](O)[C@H]3O)[nH]nc12	H37Rv			BACTEC		MIC bound		>12.5 µg/mL
Cc1c(Cl)[n+](=O)c2ccc(Cl)cc2n1[O-]	H37Rv					MIC		6.25 µg/mL
C=C(C)CC[C@H]1CN(c2ccn(N3CCOCC3)c2)C(=O)O1	C.I.1104					MIC90		>100 µM
CCOc1cc2c(cc1F)[n+](=O)c(Sc1ccccc1)c(C)n2[O-]	H37Rv					inhibition	6.25 µg/mL	0%
O=C(c1ccc(Br)cc1)c1cn(-c2ccccc2)nn1	H37Rv					inhibition	12.5 µg/mL	19%
CCN(CC)CCN1C(=O)CN=C(c2ccccn2)c2cc(Cl)ccc21	H37Rv			BACTEC		MIC		>128 µg/mL
O=[n+]1c(Sc2ccccc2)c(CBr)n([O-])c2ccccc21	H37Rv					inhibition	6.25 µg/mL	28%
CC1(C)S[C@@H]2[C@H](NC(=O)[C@H](N)c3ccccc3)C(=O)N2[C@H]1C(=O)O	1694					MIC		92 µM
CCOc1ccc2c(c1)n([O-])c1cc(Br)ccc1[n+]2=O	H37Rv		VERO			MIC		1.6 µg/mL
Cc1cc(C)c2c(=O)n(CC(O)CN3CCC(Cc4ccccc4)CC3)sc2n1	H37Rv					MIC		<12.5 µg/mL
CC1CN(c2c(F)cc3c(=O)c(C(=O)O)cn(C4CC4)c3c2F)CC(C)N1	CSU25					MIC		≤0.125 µg/mL
CC(NC(=O)c1c(F)cccc1Cl)c1nnc(SCCOc2ccc(F)cc2)n1Cc1cccnc1	H37Rv (ATCC 27294)			broth dilution	14 d	MIC		>64 µg/mL
NNC(=O)c1ccncc1	Strain 24					MIC		>8 µg/mL
NNC(=O)c1ccncc1	JHU H37Rv			BACTEC		MIC		0.023 µg/mL
CC(=O)/C(N=Nc1ccc(C(=O)N/N=C/c2ccncc2)cc1)=C(\C)O	H37Rv					EC50		>12.5 µg/mL
CC(=O)C1=C(O)c2c(C)cc(C)nc2S(=O)(=O)N1	H37Rv					MIC		>12.5 µg/mL

Repeating the first 12 entries:

compound,strain,changes,cell line,read by,setting,measure,tested at,result
CCn1c2ccc([N+](=O)[O-])cc2c2c([N+](=O)[O-])c(-n3cccc3)ccc21,H37Rv,,,BACTEC,,MIC bound,,>12.5 µg/mL
Clc1cccc2c1NC(c1ccccn1)S2,H37Rv,,,,,MIC,,3.1 µg/mL
CC(=O)/C(N=Nc1ccc(C(=O)N/N=C/c2ccc([N+](=O)[O-])o2)cc1)=C(\C)O,H37Rv,,,,,inhibition,12.5 µg/mL,95%
CCCCCCCCCCCCCCN(CCO)C[C@@H]1O[C@@H]2OC(C)(C)O[C@@H]2[C@H]2OC(C)(C)O[C@H]21,H37Rv,,,,,MIC,,6.25 µg/mL
CCOC(=O)c1[nH]c2ccccc2c1CN(C)C,H37Rv,,,BACTEC,,inhibition,6.25 µg/mL,96%
O=C(NN1C(=O)CS(=O)(=O)C1c1ccc(Cl)cc1Cl)c1ccncc1,16PI,,,,,MIC,,>5 µg/mL
CC(=O)C1=C(O)c2c(C)cc(C)nc2S(=O)(=O)N1CC(=O)c1ccccc1,H37Rv,,,,,EC50,,>12.5 µg/mL
Cc1ccc2c(c1)[n+](=O)c(Cl)c(C)n2[O-],H37Rv,,,,,inhibition,6.25 µg/mL,100%
CC(=O)Nc1cc2c(s1)CCC1CC(=O)NN=C21,H37Rv,,,resazurin,,MIC bound,,>6.25 µg/mL
CCN1c2ccccc2SC1c1ccncc1,H37Rv,,,,,MIC,,25 µg/mL
O=C(c1ccc2ccccc2c1)c1cn(-c2ccc(Cl)cc2)nn1,H37Rv,,,,,inhibition,12.5 µg/mL,0%
CCCCCCCCCCCCCCCCNCCO,H37Rv,,,,,MIC,,12.5 µg/mL